Experimental data from PMC9094630, “Epidemiological Impact of GII.17 Human Noroviruses Associated With Attachment to Enterocytes” (Frontiers in Microbiology, 2022).

Test system: T1, GII.4 2012 variant VLP
T1 construct: gene ORF2
Settings: ligand as BSA conjugate (about 20 per BSA, multivalent), immobilized; VLP 2 ng/ul; HBS pH 7.4, 25 C; also ELISA (Figure 4A)

SMILES | GII.4 variant / 2012
CC(=O)N[C@H]1[C@H](O[C@H]2[C@@H](O)[C@@H](CO)O[C@@H](O[C@H]3[C@H](O)[C@@H](O)C(O)O[C@@H]3CO)[C@@H]2O)O[C@H](CO)[C@@H](O)[C@@H]1O[C@@H]1O[C@H](CO)[C@H](O)[C@H](O)[C@H]1O[C@@H]1O[C@@H](C)[C@@H](O)[C@@H](O)[C@@H]1O (some centres unmarked) [lacto-N-fucopentaose I] | 1,457 RU
C[C@@H]1O[C@@H](O[C@H]2C(O)O[C@H](CO)[C@H](O)[C@@H]2O[C@H]2O[C@H](CO)[C@H](O)[C@H](O)[C@H]2O)[C@@H](O)[C@H](O)[C@@H]1O (some centres unmarked) [B trisaccharide] | 75 RU
